In-gel DMS probing of monomeric and dimeric HIV-1 RNA

Reference: Ye et al. 2022, doi:10.1038/s41594-022-00746-2.

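Randomly mutated transcripts starting with one, two or three G (1G, 2G, 3G), capped or uncapped, were folded for 30 min at 37 °C. High salt was 300 mM KCl and 5 mM MgCl2, low salt 40 mM KCl and 0.1 mM MgCl2; monomer and dimer were parted on a native gel. Each band was probed in the gel with DMS (170 mM, 15 min, 37 °C), with ethanol as control, and sequenced.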

RNA: 5' end of the HIV-1 NL4-3 genome, made in vitro. Positions 1-437 read:
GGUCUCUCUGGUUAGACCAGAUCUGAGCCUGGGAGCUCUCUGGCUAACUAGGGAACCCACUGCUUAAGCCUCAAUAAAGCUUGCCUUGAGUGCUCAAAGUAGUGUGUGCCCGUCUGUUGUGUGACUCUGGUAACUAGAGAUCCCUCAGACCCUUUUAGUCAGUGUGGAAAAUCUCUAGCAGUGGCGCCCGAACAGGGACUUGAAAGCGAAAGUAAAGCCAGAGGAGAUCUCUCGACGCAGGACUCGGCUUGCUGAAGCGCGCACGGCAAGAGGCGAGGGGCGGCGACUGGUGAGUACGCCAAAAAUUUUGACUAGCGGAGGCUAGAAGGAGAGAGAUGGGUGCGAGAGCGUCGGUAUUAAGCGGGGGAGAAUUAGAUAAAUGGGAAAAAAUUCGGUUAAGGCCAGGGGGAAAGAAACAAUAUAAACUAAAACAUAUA

Values are winsor-normalised DMS reactivities of A and C; higher means more reactive, usually unpaired. One numbering serves 1G, 2G and 3G. A position is written with its base.

With A332 the assay gave 3G uncapped low-salt monomer 0.66; 3G capped high-salt dimer 0.49; 2G capped high-salt monomer 0.61. With A334 (domain AUG) the assay gave 3G uncapped low-salt monomer 0.47; 3G capped high-salt dimer 0.36; 2G capped high-salt monomer 0.48. With A336 (domain AUG) the assay gave 3G uncapped low-salt monomer 0.73; 3G capped high-salt dimer 0.64; 2G capped high-salt monomer 0.79. C343 (domain AUG) gave 3G uncapped low-salt monomer 0.46; 3G capped high-salt dimer 0.34; 2G capped high-salt monomer 0.48. A345 gave 3G uncapped low-salt monomer 1.27; 3G capped high-salt dimer 1.27; 2G capped high-salt monomer 1.25.

A347 read 3G uncapped low-salt monomer 0.21; 3G capped high-salt dimer 0.21; 2G capped high-salt monomer 0.26. C349 read 3G uncapped low-salt monomer 0.26; 3G capped high-salt dimer 0.27; 2G capped high-salt monomer 0.37. For C352 the result was 3G uncapped low-salt monomer 0.36; 3G capped high-salt dimer 0.40; 2G capped high-salt monomer 0.41. With A356 the assay gave 3G uncapped low-salt monomer 0.97; 3G capped high-salt dimer 0.95; 2G capped high-salt monomer 0.96. For A359 the result was 3G uncapped low-salt monomer 0.44; 3G capped high-salt dimer 0.52; 2G capped high-salt monomer 0.52.

A360 gave 3G uncapped low-salt monomer 0.41; 3G capped high-salt dimer 0.57; 2G capped high-salt monomer 0.54. For C362 the result was 3G uncapped low-salt monomer 0.41; 3G capped high-salt dimer 0.41; 2G capped high-salt monomer 0.46. A368 read 3G uncapped low-salt monomer 0.93; 3G capped high-salt dimer 0.85; 2G capped high-salt monomer 0.94. A370 read 3G uncapped low-salt monomer 0.52; 3G capped high-salt dimer 0.53; 2G capped high-salt monomer 0.55. A371 gave 3G uncapped low-salt monomer 0.92; 3G capped high-salt dimer 0.94; 2G capped high-salt monomer 0.97.

With A374 the assay gave 3G uncapped low-salt monomer 0.42; 3G capped high-salt dimer 0.48; 2G capped high-salt monomer 0.49. With A376 the assay gave 3G uncapped low-salt monomer 0.71; 3G capped high-salt dimer 0.75; 2G capped high-salt monomer 0.76. For A378 the result was 3G uncapped low-salt monomer 0.23; 3G capped high-salt dimer 0.21; 2G capped high-salt monomer 0.22. A379 read 3G uncapped low-salt monomer 0.55; 3G capped high-salt dimer 0.60; 2G capped high-salt monomer 0.60. A380 read 3G uncapped low-salt monomer 0.79; 3G capped high-salt dimer 0.82; 2G capped high-salt monomer 0.85.

With A385 the assay gave 3G uncapped low-salt monomer 0.53; 3G capped high-salt dimer 0.53; 2G capped high-salt monomer 0.56. With A386 the assay gave 3G uncapped low-salt monomer 1.33; 3G capped high-salt dimer 1.32; 2G capped high-salt monomer 1.36. With A387 the assay gave 3G uncapped low-salt monomer 0.22; 3G capped high-salt dimer 0.23; 2G capped high-salt monomer 0.24. A388 gave 3G uncapped low-salt monomer 0.07; 3G capped high-salt dimer 0.08; 2G capped high-salt monomer 0.08. A389 read 3G uncapped low-salt monomer 0.14; 3G capped high-salt dimer 0.16; 2G capped high-salt monomer 0.16.

With A390 the assay gave 3G uncapped low-salt monomer 0.93; 3G capped high-salt dimer 0.92; 2G capped high-salt monomer 0.96. For C393 the result was 3G uncapped low-salt monomer 0.60; 3G capped high-salt dimer 0.64; 2G capped high-salt monomer 0.68. With A398 the assay gave 3G uncapped low-salt monomer 0.17; 3G capped high-salt dimer 0.17; 2G capped high-salt monomer 0.17. A399 read 3G uncapped low-salt monomer 0.21; 3G capped high-salt dimer 0.22; 2G capped high-salt monomer 0.22. With C402 the assay gave 3G uncapped low-salt monomer 0.04; 3G capped high-salt dimer 0.03; 2G capped high-salt monomer 0.03.

C403 gave 3G uncapped low-salt monomer 0.04; 3G capped high-salt dimer 0.03; 2G capped high-salt monomer 0.03. With A404 the assay gave 3G uncapped low-salt monomer 0.26; 3G capped high-salt dimer 0.27; 2G capped high-salt monomer 0.21. With A410 the assay gave 3G uncapped low-salt monomer 0.42; 3G capped high-salt dimer 0.42; 2G capped high-salt monomer 0.46. A411 read 3G uncapped low-salt monomer 0.81; 3G capped high-salt dimer 0.87; 2G capped high-salt monomer 0.91. A412 read 3G uncapped low-salt monomer 0.46; 3G capped high-salt dimer 0.51; 2G capped high-salt monomer 0.52.

The opening 2 entries, copied out:

position,domain,3G uncapped low-salt monomer,3G capped high-salt dimer,2G capped high-salt monomer
A332,none,0.66,0.49,0.61
A334,AUG,0.47,0.36,0.48